The text below walks through data of PubChem BioAssay AID720554 (ICCB-Longwood Screening Facility, Harvard Medical School, 2013).

Each structure is given as a SMILES string. This is a selection; strong and weak results do not stand in their true shares. Activity calls are given as the source filed them. Cut-off read from the data, not from the text of the source: active = inhibition mostly above about 83% (no sharp cut-off); inactive = mostly below about 52%.

The experiment has as its system acyl-homoserine lactone synthase BmaI1 (Burkholderia mallei ATCC 23344). Nature of the experiment: BmaI1 acyl-homoserine lactone synthase inhibition – biochemical, fluorescence intensity, with counterscreen (AID 720554). As to conditions: BmaI1 enzyme assay, active compounds read high, concentration not given here.
As for `O=P1(Nc2nncs2)C=C(c2ccccc2)SC(c2ccccc2)=C1`, the inhibition is inactive: 17.5%.

With `CCN1C(=O)N(c2ccccc2)P(=S)(OC)c2cc3c(cc21)OCCO3` (stereo not drawn), the inhibition is inactive: 24.5%.

With `CCSP(=O)(c1ccccc1)c1ccccc1`, the inhibition was inactive: 11.5%.
